One compound from US8415351B2 (priority 2007, dated 2013) can be followed below.

Chains of the proteins cited; added tags and fusions are not shown. Lines headed by an entry give the natural chain unless they say otherwise; changes in a name come on top. Residues count along the entry.
UniProt P26663, 2420-2989 limits assumed, stated change not applied: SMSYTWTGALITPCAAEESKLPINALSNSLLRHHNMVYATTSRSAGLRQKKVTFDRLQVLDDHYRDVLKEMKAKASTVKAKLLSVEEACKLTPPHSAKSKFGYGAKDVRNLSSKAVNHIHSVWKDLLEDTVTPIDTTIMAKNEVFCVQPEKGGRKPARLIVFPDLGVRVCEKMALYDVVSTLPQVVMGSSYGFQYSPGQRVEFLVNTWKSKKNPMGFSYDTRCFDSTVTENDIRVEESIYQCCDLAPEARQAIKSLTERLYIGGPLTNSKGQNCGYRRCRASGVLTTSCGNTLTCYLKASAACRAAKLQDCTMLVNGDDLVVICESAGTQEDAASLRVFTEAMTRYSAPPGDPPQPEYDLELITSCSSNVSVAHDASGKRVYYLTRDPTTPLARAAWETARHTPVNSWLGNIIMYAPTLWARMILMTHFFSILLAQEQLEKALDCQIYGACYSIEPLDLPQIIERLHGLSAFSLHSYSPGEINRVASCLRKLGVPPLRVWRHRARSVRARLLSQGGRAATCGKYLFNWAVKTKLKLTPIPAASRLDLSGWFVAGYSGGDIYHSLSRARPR
UniProt P27958, 2421-2990 limits assumed, stated change not applied: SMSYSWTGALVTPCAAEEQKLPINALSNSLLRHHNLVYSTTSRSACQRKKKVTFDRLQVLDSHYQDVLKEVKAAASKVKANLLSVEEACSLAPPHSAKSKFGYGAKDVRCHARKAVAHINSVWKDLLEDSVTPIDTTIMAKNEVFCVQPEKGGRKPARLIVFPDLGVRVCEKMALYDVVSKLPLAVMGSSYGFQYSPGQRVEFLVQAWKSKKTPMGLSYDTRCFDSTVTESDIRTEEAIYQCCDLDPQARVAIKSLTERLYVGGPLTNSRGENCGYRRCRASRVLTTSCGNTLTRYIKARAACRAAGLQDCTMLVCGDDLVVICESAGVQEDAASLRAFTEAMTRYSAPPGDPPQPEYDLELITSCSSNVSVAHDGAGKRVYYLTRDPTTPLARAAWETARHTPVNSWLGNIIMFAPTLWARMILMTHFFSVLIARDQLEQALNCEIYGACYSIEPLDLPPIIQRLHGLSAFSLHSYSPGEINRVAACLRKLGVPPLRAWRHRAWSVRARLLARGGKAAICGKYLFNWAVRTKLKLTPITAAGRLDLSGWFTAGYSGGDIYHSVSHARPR

Assay [1] addresses HCV polymerase 1B (Δ21 NS5B, BK) (Hepatitis C virus genotype 1b, UniProt P26663). To be noted: read-out: IC50 1b.
Assay [2] deals with HCV polymerase 1A (Δ21 NS5B, H77) (Hepatitis C virus genotype 1a, UniProt P27958). As to conditions: read-out: IC50 1a.

The structures appear in SMILES notation. Some results are limits rather than exact numbers.

Usually IC50 stands for the concentration that gives 50% inhibition. In the case of `COc1c(-c2ccc3cc(NS(C)(=O)=O)ccc3c2)cc(-n2ccc(=O)[nH]c2=O)cc1-c1ccc2cc(NS(C)(=O)=O)ccc2c1`, the figures for the IC50 in assay [1] and in assay [2] were over 1 µM and 0.1 to 1 µM, respectively.
